Data reported in patent US20220280513A1, “ENHANCING THE ANTIVIRAL EFFICACY OF RNA VIRUS INHIBITION BY COMBINATION WITH MODULATORS OF PYRIMIDINE METABOLISM” (The Board of Trustees of the Leland Stanford Junior …, priority 2019, published 2022).

System: intracellular uridine and cytidine nucleotide levels
Experiment: LC-MS/MS analysis of intracellular nucleotides in A549 cells
Type: cell-based
Details: 250 μM with 1 μM GSK983, 5 μM uridine, 6 h
Method: FIG. 7. LC-MS analysis of intracellular nucleotides. (A) LC-MS analysis of intracellular uridine and cytidine nucleotide levels after 6 h treatments. In all assays, the culture medium was supplemented with 5 μM uridine and 1 μM GSK983. Error bars represent ±S.D. of two replicates. (B) LC-MS detection of mono-, di- and tri-phosphates of CPU and 5-F-CPU in cells. LC-MS/MS was performed on an Agilent 1290 infinity II LC system tandem with 6370 triple quad mass spectrometer using ion pairing chromatography. LC separation was performed at 40° C. with a solvent flow rate of 0.25 mL/min on a Zorbax RRHD Extended-C18 column (2.1×150 mm, 1.8 μM). Buffer A contained 97% H2O, 3% MeOH, 5 mM tributylamine, 5.5 mM Acetic acid and 1 μM medronic acid with pH=5.0; Buffer B contains ca. 100% MeOH, 5 mM tributylamine, 5.5 mM Acetic acid and 5 μM medronic acid with pH=7.0 The initial mobile phase composition was 100% solvent A, and a constant or linear gradient was applied after sample injection with eluent B varying as follows: 0% at 2.5 min, 20% at 7.5 min, 45% at 14 min, 99% at 20 to 23 min, and 0% from 23.1 to 27.1 min. […] Samples were measured in the negative ESI mode with capillary voltage at −3.5 kV. […]
With optimized sampling and detection method in hand, pyrimidine nucleotide levels were measured in cells cultured with either 250 μM CPU, 5-F-CPU or 5′-F-CPU in combination with 1 μM GSK983 (FIG. 7A). […]

SMILES	detection of the triphosphate in cells by LC-MS
O=c1ccn([C@@H]2C=C(CO)[C@@H](O)[C@H]2O)c(=O)[nH]1 [CPU, 1-((1R,4R,5S)-4,5-dihydroxy-3-(hydroxymethyl)cyclopent-2-en-1-yl)pyrimidine-2,4(1H,3H)-dione]	could be detected
O=c1[nH]c(=O)n([C@@H]2C=C(CO)[C@@H](O)[C@H]2O)cc1F [5-F-CPU, 1-((1R,4R,5S)-4,5-dihydroxy-3-(hydroxymethyl)cyclopent-2-en-1-yl)-5-fluoropyrimidine-2,4(1H,3H)-dione]	could be detected
